The text below walks through data of ChEMBL document CHEMBL3988442, “University of Dundee, Small-Polar-MMV Screening Library” (2021).

Protein sequences, listed by entry. Tags and fused reporters are not part of them. Residues count along the entry.
UniProt E9BF75, entry or part of it: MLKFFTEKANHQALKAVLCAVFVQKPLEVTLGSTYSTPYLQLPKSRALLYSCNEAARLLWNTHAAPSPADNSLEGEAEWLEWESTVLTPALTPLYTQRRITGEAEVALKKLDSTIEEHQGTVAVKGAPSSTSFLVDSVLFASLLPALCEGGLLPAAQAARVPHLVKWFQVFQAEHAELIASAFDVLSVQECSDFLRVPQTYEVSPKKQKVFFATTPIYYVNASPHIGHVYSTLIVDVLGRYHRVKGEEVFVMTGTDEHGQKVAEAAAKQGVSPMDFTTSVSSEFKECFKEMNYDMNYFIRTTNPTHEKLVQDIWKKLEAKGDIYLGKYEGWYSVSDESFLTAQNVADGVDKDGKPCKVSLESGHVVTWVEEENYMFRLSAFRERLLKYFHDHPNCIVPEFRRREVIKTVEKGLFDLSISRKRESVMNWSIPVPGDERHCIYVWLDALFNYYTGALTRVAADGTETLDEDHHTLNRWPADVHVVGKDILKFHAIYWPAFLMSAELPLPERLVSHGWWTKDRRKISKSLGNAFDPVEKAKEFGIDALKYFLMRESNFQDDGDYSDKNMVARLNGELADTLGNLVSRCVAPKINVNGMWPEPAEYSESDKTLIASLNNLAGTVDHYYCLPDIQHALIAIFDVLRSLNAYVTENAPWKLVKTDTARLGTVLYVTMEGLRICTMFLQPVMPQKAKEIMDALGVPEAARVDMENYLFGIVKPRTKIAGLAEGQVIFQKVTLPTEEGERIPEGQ
UniProt P9WNZ1, whole entry: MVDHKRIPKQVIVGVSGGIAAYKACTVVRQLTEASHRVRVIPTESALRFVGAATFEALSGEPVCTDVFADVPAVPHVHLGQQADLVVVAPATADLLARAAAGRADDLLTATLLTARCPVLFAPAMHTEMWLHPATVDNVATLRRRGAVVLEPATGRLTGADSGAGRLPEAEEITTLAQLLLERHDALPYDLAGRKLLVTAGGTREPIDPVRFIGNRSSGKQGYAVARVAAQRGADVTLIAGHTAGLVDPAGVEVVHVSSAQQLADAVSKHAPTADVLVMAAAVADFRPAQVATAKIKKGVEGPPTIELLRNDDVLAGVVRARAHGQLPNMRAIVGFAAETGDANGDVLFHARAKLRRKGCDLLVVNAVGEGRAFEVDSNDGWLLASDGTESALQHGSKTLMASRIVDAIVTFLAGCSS
UniProt Q8IDJ8, 1-583: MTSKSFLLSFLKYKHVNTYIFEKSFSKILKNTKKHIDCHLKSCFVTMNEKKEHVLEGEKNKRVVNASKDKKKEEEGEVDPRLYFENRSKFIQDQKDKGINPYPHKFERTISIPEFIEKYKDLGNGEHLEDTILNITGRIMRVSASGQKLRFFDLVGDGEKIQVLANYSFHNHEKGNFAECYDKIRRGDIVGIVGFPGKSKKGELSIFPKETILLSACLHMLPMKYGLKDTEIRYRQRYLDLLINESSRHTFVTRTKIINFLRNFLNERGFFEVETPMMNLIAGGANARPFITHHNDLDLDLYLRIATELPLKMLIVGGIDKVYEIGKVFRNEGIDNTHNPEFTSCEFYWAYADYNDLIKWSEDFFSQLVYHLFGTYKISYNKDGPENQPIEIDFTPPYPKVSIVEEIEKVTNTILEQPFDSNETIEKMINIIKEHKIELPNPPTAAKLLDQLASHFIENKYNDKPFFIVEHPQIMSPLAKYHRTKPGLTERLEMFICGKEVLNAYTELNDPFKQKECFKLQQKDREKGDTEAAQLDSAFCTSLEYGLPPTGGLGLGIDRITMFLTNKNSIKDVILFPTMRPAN
UniProt Q4DA54, 1-478: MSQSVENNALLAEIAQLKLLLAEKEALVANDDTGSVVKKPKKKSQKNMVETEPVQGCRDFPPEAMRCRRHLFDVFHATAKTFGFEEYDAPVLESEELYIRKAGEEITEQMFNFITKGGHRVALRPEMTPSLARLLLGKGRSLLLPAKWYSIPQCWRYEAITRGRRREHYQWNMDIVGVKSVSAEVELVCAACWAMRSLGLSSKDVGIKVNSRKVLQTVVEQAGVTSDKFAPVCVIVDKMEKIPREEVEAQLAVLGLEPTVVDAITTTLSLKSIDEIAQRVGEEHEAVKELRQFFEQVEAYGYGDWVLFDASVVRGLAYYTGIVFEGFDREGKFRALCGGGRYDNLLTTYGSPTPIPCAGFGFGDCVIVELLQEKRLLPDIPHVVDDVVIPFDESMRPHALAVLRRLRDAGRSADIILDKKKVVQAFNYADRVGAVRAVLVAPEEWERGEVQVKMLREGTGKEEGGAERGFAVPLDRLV
UniProt P9WFT3, whole entry: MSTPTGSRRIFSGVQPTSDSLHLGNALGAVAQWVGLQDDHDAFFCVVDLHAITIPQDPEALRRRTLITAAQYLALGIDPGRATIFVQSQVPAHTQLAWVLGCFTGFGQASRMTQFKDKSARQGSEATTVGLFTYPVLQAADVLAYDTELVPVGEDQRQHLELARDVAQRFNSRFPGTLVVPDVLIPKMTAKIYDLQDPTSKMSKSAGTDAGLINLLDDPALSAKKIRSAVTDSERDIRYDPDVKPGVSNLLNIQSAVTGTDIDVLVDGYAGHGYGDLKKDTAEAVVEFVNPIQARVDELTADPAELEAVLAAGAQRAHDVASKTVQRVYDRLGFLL
UniProt A4I591, 1-473: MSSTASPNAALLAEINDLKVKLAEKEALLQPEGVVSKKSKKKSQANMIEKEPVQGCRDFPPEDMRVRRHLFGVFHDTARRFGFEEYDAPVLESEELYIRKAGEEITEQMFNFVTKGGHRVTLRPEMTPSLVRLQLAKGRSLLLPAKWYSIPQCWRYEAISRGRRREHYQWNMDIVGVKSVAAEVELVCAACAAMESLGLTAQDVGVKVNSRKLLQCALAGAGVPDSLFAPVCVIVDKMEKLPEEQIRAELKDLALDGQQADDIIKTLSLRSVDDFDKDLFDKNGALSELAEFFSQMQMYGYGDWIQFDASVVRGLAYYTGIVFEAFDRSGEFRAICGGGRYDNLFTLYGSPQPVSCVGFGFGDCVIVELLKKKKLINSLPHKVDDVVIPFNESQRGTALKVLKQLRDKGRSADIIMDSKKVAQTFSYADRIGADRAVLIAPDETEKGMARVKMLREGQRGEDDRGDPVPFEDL
UniProt I6X8D2, whole entry: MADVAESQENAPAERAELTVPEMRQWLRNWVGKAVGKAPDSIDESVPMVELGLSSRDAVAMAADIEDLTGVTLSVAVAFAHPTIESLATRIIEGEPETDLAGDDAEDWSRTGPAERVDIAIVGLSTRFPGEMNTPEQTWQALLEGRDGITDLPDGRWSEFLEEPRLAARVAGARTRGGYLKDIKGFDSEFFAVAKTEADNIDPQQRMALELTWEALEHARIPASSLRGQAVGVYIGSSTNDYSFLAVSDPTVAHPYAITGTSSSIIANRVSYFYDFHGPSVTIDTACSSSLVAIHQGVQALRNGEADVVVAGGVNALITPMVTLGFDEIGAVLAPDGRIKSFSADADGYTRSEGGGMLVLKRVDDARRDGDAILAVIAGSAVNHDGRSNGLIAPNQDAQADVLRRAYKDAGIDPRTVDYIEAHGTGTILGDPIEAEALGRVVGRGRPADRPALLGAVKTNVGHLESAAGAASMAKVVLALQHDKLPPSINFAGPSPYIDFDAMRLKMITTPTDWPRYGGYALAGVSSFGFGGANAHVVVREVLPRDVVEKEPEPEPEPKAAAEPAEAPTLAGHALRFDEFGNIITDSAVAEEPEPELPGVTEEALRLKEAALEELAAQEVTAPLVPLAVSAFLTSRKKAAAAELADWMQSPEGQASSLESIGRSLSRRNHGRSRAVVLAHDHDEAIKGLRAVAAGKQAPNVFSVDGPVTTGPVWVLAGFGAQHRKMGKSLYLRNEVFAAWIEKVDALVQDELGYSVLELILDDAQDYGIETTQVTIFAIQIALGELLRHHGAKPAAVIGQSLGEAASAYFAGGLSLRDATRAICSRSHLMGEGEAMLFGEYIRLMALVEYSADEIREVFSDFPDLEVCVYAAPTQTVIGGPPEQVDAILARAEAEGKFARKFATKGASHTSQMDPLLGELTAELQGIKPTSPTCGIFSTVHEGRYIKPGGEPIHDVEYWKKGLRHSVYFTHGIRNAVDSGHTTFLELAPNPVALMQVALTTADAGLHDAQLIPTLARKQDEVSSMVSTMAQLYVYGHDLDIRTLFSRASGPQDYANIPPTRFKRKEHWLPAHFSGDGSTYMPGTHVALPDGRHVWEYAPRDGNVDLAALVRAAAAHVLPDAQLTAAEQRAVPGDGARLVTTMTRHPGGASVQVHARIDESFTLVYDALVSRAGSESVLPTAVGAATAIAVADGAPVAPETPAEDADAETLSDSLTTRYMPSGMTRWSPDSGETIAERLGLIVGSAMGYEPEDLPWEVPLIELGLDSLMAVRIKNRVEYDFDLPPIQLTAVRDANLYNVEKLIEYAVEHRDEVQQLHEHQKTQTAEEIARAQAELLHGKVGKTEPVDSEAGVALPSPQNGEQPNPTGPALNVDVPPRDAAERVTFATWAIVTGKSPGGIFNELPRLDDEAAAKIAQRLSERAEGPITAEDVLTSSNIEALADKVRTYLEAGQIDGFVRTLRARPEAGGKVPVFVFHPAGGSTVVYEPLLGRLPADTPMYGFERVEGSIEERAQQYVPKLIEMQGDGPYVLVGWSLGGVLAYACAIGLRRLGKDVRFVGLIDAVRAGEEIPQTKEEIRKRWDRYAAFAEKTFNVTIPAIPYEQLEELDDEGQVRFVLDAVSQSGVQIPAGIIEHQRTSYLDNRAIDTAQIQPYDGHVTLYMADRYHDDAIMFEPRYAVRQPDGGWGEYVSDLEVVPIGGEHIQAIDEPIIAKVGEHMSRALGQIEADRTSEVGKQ
UniProt P9WPC5, whole entry: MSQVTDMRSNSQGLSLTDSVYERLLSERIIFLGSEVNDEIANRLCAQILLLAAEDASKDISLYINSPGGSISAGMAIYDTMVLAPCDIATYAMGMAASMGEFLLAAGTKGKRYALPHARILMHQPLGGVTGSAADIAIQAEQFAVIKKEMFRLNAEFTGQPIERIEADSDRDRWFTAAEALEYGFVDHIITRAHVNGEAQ
UniProt P9WPC3, whole entry partner: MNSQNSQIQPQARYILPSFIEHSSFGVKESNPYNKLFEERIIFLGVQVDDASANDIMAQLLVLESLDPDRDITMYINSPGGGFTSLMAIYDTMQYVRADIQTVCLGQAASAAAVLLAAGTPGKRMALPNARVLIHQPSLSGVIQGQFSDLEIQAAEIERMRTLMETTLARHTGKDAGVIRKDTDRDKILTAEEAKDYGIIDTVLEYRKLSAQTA

Common to all, as to type: functional
For experiment [1], the target named is Methionyl-tRNA synthetase, putative (Leishmania donovani (strain BPK282A1)) (UniProt E9BF75). Briefly: Leishmania donovani Methionine tRNA synthetase (LdMetRS):v6. Primary screen assay. The arrangement: conc 80 nM, time 150 minutes.
Experiment [2] addresses Coenzyme A biosynthesis bifunctional protein CoaBC (Mycobacterium tuberculosis (strain ATCC 25618 / H37Rv)) (UniProt P9WNZ1). Kind of experiment: Biomol Green assay for MtCoaBC inhibitor, OD650 read. The arrangement: scale not given: in the data most compounds retested in dose-response had high values. To be noted: 30 µM.
Experiment [3] addresses Lysine--tRNA ligase (Plasmodium falciparum (isolate 3D7)) (UniProt Q8IDJ8). Briefly: Pf-KRS-1 (Lysyl-RNA Synthetase-1, KRS-1, cytosolic KRS) from Plasmodium falciparum. Inhibitor assay, 384 well plate, luminescence read. Also noted: scale not given: direction of the effect not stated beside the values. To be noted: 30 µM.
The target in experiment [4] is Histidine--tRNA ligase (Trypanosoma cruzi (strain CL Brener)) (UniProt Q4DA54). Kind of experiment: Trypanosoma cruzi histidyl tRNA synthetase (Tc-HisRS). The arrangement: scale not given: direction of the effect not stated beside the values. As to conditions: 30 µM.
The target in experiment [5] is Tryptophan--tRNA ligase (Mycobacterium tuberculosis (strain ATCC 25618 / H37Rv)) (UniProt P9WFT3). Kind of experiment: Biochemical assay for Mt-TrpRS. The arrangement: scale not given: direction of the effect not stated beside the values. As to conditions: 10 µM.
For experiment [6], the target named is Histidine--tRNA ligase (Leishmania infantum) (UniProt A4I591). Kind of experiment: Leishmania infantum Histidine tRNA synthetase (LdHisRS). Also noted: scale not given: in the data most compounds retested in dose-response had high values. To be noted: 30 µM.
For experiment [7], the target named is Polyketide synthase Pks13 (Mycobacterium tuberculosis (strain ATCC 25618 / H37Rv)) (UniProt I6X8D2). Kind of experiment: Mycobacterium tuberculosis Polyketide synthase 13 Thioesterase (PKS13). As to conditions: 30 µM. Also noted: scale not given: in the data most compounds retested in dose-response had high values.
The target in experiment [8] is ClpP1P2 (Mycobacterium tuberculosis (strain ATCC 25618 / H37Rv)) (UniProt P9WPC5+P9WPC3). Kind of experiment: in vitro assay to detect presence of AMC directly proportional to the activity of ClpP1P2. GHDDI collaboration. As to conditions: 50 µM. Also noted: scale not given: direction of the effect not stated beside the values.

Only a part is listed here, and it is no random draw.

In the case of `COc1ccccc1NC1CCN(Cc2nc(C)ccc2O)CC1`, the inhibition in experiment [1] is 10.3%. The Percent Effect is 8.29% in experiment [2]; 5.36% in experiment [3]; 0.87% in experiment [4]; 0.356% in experiment [5]; 10% in experiment [6]; -23.4% in experiment [7]. Also, the Percent Effect in experiment [8] is -8.53%.

Regarding `Cc1ccccc1NC1CCNCC1`, the inhibition in experiment [1] was 14.5%. For the same molecule, the Percent Effect is -2.59% in experiment [2]; 0.193% in experiment [3]; -4.12% in experiment [4]; 1.23% in experiment [5]; 12.1% in experiment [6]; -18.6% in experiment [7]. Moreover, in experiment [8], the Percent Effect was 6.69%.

Take `COc1cc(NC2CCNCC2)cc(OC)c1`: in experiment [1], the inhibition came out at 7.1%. For the same molecule, the Percent Effect was -37.8% in experiment [2]; 0.401% in experiment [3]; 1.59% in experiment [4]; 1e-14% in experiment [5]; -2.74% in experiment [6]; -5.71% in experiment [7]. In experiment [8], the Percent Effect amounted to 6.69%.

`Cc1ccc(NC2CCN(C(C)c3nnc(C)o3)CC2)cc1` (stereo not given): the inhibition in experiment [1] was determined as 18%. For the same molecule, the Percent Effect came to 7.65% in experiment [2]; 5.85% in experiment [3]; 11.4% in experiment [4]; 1.68% in experiment [5]; 20.5% in experiment [6]; 10.8% in experiment [7]. For the same molecule, the Percent Effect in experiment [8] is -3.37%.

As for `Brc1ccccc1NC1CCNCC1`, the inhibition in experiment [1] turned out to be 13.4%. Further, the Percent Effect in experiment [2] is -13%; in experiment [3] it was 3.12%; in experiment [4], 4.12%; in experiment [5], 0.308%; in experiment [6], 14.3%; in experiment [7] it was -12.7%. In addition, the Percent Effect in experiment [8] came out at 3.84%.

With `COc1cc(NC2CCN(C(C)c3nnc(C)o3)CC2)cc(OC)c1` (stereo not given), in experiment [1], the inhibition is 18.6%. The Percent Effect is 9.91% in experiment [2]; -0.322% in experiment [3]; 8.46% in experiment [4]; 1.53% in experiment [5]; 15.7% in experiment [6]; -3.61% in experiment [7]. Moreover, in experiment [8], the Percent Effect was -4.88%.

Take `CC1(C)CN(C2(CNC(=O)c3cnns3)CCCCC2)CCO1`: the inhibition in experiment [1] was determined as 19.3%. Also, the Percent Effect in experiment [2] was -12.5%; in experiment [3] it was 7.91%; in experiment [4], 7.22%; in experiment [5], -1.39%; in experiment [6], 9.89%; in experiment [7] it was 5.56%. For the same molecule, in experiment [8], the Percent Effect was 2.11%.

On to `CC1(C)CN(C2(CNC(=O)c3csnn3)CCCCC2)CCO1`, for which the inhibition in experiment [1] was 20.4%. The Percent Effect in experiment [2] is -0.472%; in experiment [3] it was 3.67%; in experiment [4], 4.12%; in experiment [5], -1.69%; in experiment [6], 16.5%; in experiment [7], -12.6%. Moreover, in experiment [8], the Percent Effect stood at 1.42%.

With `CCN1CCC(N(C(=O)c2cc(C)no2)c2ccccc2OC)CC1`, the inhibition in experiment [1] was 18%. The Percent Effect is 10.4% in experiment [2]; 12.8% in experiment [3]; 5.7% in experiment [4]; 0.75% in experiment [5]; 21.5% in experiment [6]; -22.5% in experiment [7]. In experiment [8], the Percent Effect was found to be 3.71%.

In the case of `COc1ccc(CN2CCC(Nc3ccc(Br)cc3)CC2)c(OC)c1`, the inhibition in experiment [1] is 9.38%. Besides, the Percent Effect in experiment [2] is -5.99%; in experiment [3] it was -0.294%; in experiment [4] it was 7.77%; in experiment [5] it was -0.405%; in experiment [6], 3.37%; in experiment [7], -0.237%. For the same molecule, the Percent Effect in experiment [8] is -15.2%.

As for `COc1ccccc1NC1CCN(Cc2nc(C)c(C)s2)CC1`, in experiment [1], the inhibition was found to be 1.63%. Further, the Percent Effect is -1.28% in experiment [2]; -7.86% in experiment [3]; 1.74% in experiment [4]; -1.21% in experiment [5]; 5% in experiment [6]; 0.574% in experiment [7]. For the same molecule, in experiment [8], the Percent Effect was -14%.

For the molecule `Fc1ccccc1NC1CCNCC1`, the inhibition in experiment [1] was determined as 15%. Also, the Percent Effect in experiment [2] was 1.18%; in experiment [3], 2.63%; in experiment [4], 10.3%; in experiment [5], -3.54%; in experiment [6], 16.5%; in experiment [7], -16.4%. The Percent Effect in experiment [8] came to 1.91%.

With `COc1ccc(CN2CCC(Nc3ccc(Br)cc3)CC2)cc1OC`, the inhibition in experiment [1] is -8.01%. Also, the Percent Effect in experiment [2] was -16.7%; in experiment [3], 3.09%; in experiment [4], 9.85%; in experiment [5] it was 0.89%; in experiment [6] it was 5.62%; in experiment [7], -1.86%. In experiment [8], the Percent Effect is -15.4%.

In the case of `COc1ccc(OC)c(NC2CCN(C)CC2)c1`, the inhibition in experiment [1] is 3.67%. Further, the Percent Effect is -19.7% in experiment [2]; 6.78% in experiment [3]; -0.529% in experiment [4]; 2.41% in experiment [5]; 20% in experiment [6]; -1.39% in experiment [7]. In experiment [8], the Percent Effect was determined as 0.0146%.

On to `COc1ccc(OC)c(NC2CCN(Cc3ccc(Br)cc3)CC2)c1`, for which the inhibition in experiment [1] amounted to 12.1%. In addition, the Percent Effect in experiment [2] is -0.521%; in experiment [3] it was -1.66%; in experiment [4], 4.66%; in experiment [5], 1.54%; in experiment [6], 7.87%; in experiment [7] it was -12.8%. The Percent Effect in experiment [8] was -11%.
